Compound potency records, mixed from different reports. Data source: NIAID ChemDB in PubChem.

Shared fields: target-level tests; organism: HIV-1; protein: Reverse transcriptase

ICn: concentration for n% inhibition.

| compound | read-out | strain or isolate | mutations | method | value |
|---|---|---|---|---|---|
| C#Cc1ccc(Nc2nccc(Oc3c(C)cc(-c4cn(Cc5ccc([N+](=O)[O-])cc5)nn4)cc3C)n2)cc1 | IC50 |  |  | RT activity / ELISA | 0.15 µM |
| Fc1cccc(F)c1Cn1c(-c2c(F)cccc2F)nc2ccccc21 | IC50 |  |  |  | ~10 µM |
| COc1ccc(Oc2ccc(C(=O)O)cc2NC(=O)Nc2c(C)cccc2C)cc1 | IC50 |  | Wild type | scintillation proximity / radiometric | >5 µM |
| Cc1ccc2c(c1)n(CCNC(=S)Nc1ccc(Br)cn1)c(=O)c1cccn12 | Ki |  |  | nucleotide incorporation | 0.02 µM |
| c1ccc(C2OCc3nc4ccccc4n32)cc1 | IC50 | IIIB |  | nucleotide incorporation / radiometric | 775 µM |
| CN(C)c1ccc(-c2c3nc(c(-c4ccc(N(C)C)cc4)c4ccc([nH]4)c(-c4ccc(N(C)C)cc4)c4nc(c(-c5ccc(N(C)C)cc5)c5ccc2[nH]5)C=C4)C=C3)cc1 | IC50 |  |  | nucleotide incorporation | >100 µM |
| O=C(O[C@@H]1Cc2c(O)cc(O)cc2O[C@@H]1c1ccc(O)c(O)c1)c1cc(O)c(O)c(O)c1 | Ki | LAV |  |  | 0.0028 µM |
| Cc1ccc2c(c1)nc(-c1c(F)cccc1F)n2Cc1c(F)cccc1F | IC50 |  |  |  | >10 µM |
| CC(C)(C)c1cc(-c2c3nc(c(-c4cc(C(C)(C)C)c(O)c(C(C)(C)C)c4)c4ccc([nH]4)c(-c4cc(C(C)(C)C)c(O)c(C(C)(C)C)c4)c4nc(c(-c5cc(C(C)(C)C)c(O)c(C(C)(C)C)c5)c5ccc2[nH]5)C=C4)C=C3)cc(C(C)(C)C)c1O | IC50 |  |  | nucleotide incorporation | >100 µM |
| Cc1cnnn1[C@H]1C[C@H](n2ccc(=O)[nH]c2=O)O[C@@H]1COP(=O)(O)OP(=O)(O)OP(=O)(O)O | IC50 | LAV |  | RT activity | >50 µM |
| O=C(NC1CCN(C(=O)c2ccc(F)cc2)CC1)c1cc(O)c(O)c(O)c1 | IC50 | BH10 |  | ELISA / nucleotide incorporation | >320.5 µM |
| Cc1cccc2c1nc(-c1c(F)cccc1F)n2Cc1c(F)c(F)c(F)c(F)c1F | IC50 |  |  |  | <10 µM |
| Fc1ccc(F)c(C2OCc3nc4ccccc4n32)c1 | IC50 | IIIB |  | nucleotide incorporation / radiometric | 57 µM |
| C[C@H](CC(=O)C[C@@H](C)[C@H]1C[C@H](O)[C@@]2(C)C3=C(C(=O)C[C@]12C)[C@@]1(C)CCC(=O)C(C)(C)[C@@H]1C[C@@H]3O)C(=O)O | IC50 |  |  | RT activity | >250 µM |
| Cc1ccc2nc(-c3c(F)cccc3F)n(Cc3c(F)cccc3F)c2c1 | IC50 |  |  |  | >10 µM |
| Cc1c(Cc2c(Cl)cccc2Cl)nc(Sc2ccc(F)cc2F)[nH]c1=O | IC50 |  | Y181I |  | >400 µM |
| CC1=CC(C2O[C@H](CO)C(N3C(=O)CS[C@H]3C3OC(n4ccc(=O)[nH]c4=O)[C@@H](O)[C@H]3O)[C@H]2O)C(=O)NC1=O | IC50 |  |  | RT activity | >100 µM |
| Cc1cccc2c1nc(-c1c(F)cccc1F)n2Cc1cccnc1 | IC50 |  |  |  | <10 µM |
| Cc1nnn([C@H]2C[C@H](n3cc(C)c(=O)[nH]c3=O)O[C@@H]2COP(=O)(O)OP(=O)(O)OP(=O)(O)O)c1C | IC50 | LAV |  | RT activity | >50 µM |
| Cc1ccc2c(nc(-c3c(F)cccc3F)n2Cc2c(F)cccc2F)c1C | IC50 |  |  |  | >10 µM |
| CC(C)[C@@H](C)/C=C/[C@@H](C)[C@H]1CCC2[C@@]34C=C[C@]5(C[C@@H](O)CC[C@]5(C)C3CC[C@@]21C)OO4 | IC50 |  |  | RT activity | >250 µM |
| COc1ccccc1-c1c2nc(c(-c3ccccc3OC)c3ccc([nH]3)c(-c3ccccc3OC)c3nc(c(-c4ccccc4OC)c4ccc1[nH]4)C=C3)C=C2 | IC50 |  |  | nucleotide incorporation | >100 µM |
| Cc1cn([C@H]2C=C[C@@H](COP(=O)(O)OP(=O)(O)OP(=O)(O)O)O2)c(=O)[nH]c1=O | IC50 |  | RT-N137A | nucleotide incorporation / radiometric | 0.18 µM |
| Fc1cccc(F)c1COCc1nc2ccccc2n1Cc1c(F)cccc1F | IC50 |  |  |  | >10 µM |
| O=C(OC1COc2ccccc2C1)c1cc(O)c(O)c(O)c1 | IC50 |  |  |  | >100 µM |
| COc1ccc(Sc2nc(Cc3c(F)cccc3F)c(C)c(=O)[nH]2)cc1 | IC50 |  | RT-K103N |  | >400 µM |
| COc1ccc(S(=O)(=O)N2CCC(NC(=O)c3cc(O)c(O)c(O)c3)CC2)cc1 | IC50 | BH10 |  | ELISA / nucleotide incorporation | 46.7 µM |
| CC1=CC(C2OC(CN3C(=O)CS[C@H]3C3OC(n4ccc(=O)[nH]c4=O)[C@@H](O)[C@H]3O)[C@@H](O)[C@H]2O)C(=O)NC1=O | IC50 |  |  | RT activity | 26.3 µM |
| CCc1c(Sc2ccccn2)n(COCc2ccccc2)c(=O)[nH]c1=O | IC50 |  | RT-Y188H |  | 8 µM |
| Oc1ccccc1-c1c2nc(c(-c3ccccc3O)c3ccc([nH]3)c(-c3ccccc3O)c3nc(c(-c4ccccc4O)c4ccc1[nH]4)C=C3)C=C2 | IC50 |  |  | nucleotide incorporation | 3 µM |
| O=c1cnc2ccccc2n1CCNC(=S)Nc1ccc(Br)cn1 | Ki |  | RT-K103N | nucleotide incorporation | 0.62 µM |
| C#Cc1ccc(Nc2nccc(Oc3c(C)cc(-c4cn(CCc5ccccc5)nn4)cc3C)n2)cc1 | IC50 |  |  | RT activity / ELISA | 0.62 µM |
| Nc1ccc(-c2c3nc(c(-c4ccc(N)cc4)c4ccc([nH]4)c(-c4ccc(N)cc4)c4nc(c(-c5ccc(N)cc5)c5ccc2[nH]5)C=C4)C=C3)cc1 | IC50 |  |  | nucleotide incorporation | >100 µM |
| C#Cc1ccc(Nc2nccc(Oc3c(C)cc(-c4cn(Cc5cccc([N+](=O)[O-])c5)nn4)cc3C)n2)cc1 | IC50 |  |  | RT activity / ELISA | 0.24 µM |
| Cc1c(Cc2c(F)cccc2F)nc(Sc2ccc(F)cc2F)[nH]c1=O | IC50 |  | RT-K103N |  | >400 µM |
| C#Cc1ccc(Nc2nccc(Oc3c(C)cc(-c4cn(CC(=O)Nc5ccc(S(C)(=O)=O)cc5)nn4)cc3C)n2)cc1 | IC50 |  |  | RT activity / ELISA | 0.29 µM |
| CC(=O)Oc1ccc(OC(C)=O)c(C[C@@]2(C)C3CCC[C@@](C)(CC[C@@]4(C)C5=CCCC(C)(C)[C@H]5CC[C@@H]4C)C3=CC[C@H]2C)c1 | IC50 |  |  | nucleotide incorporation / radiometric | 41 µM |
| COc1ccc(Sc2nc(Cc3c(Cl)cccc3Cl)c(C)c(=O)[nH]2)cn1 | IC50 |  | Y181I |  | >400 µM |
| CO[C@@H]1C=C2C3CC[C@H]([C@H](C)/C=C/C(C)C(C)C)[C@@]3(C)CCC2[C@@]2(C)CC[C@H](O)C[C@]12O | IC50 |  |  | RT activity | >250 µM |
| Cc1ccc(S(=O)(=O)N2CCN(C(=O)c3cc(O)c(O)c(O)c3)CC2)cc1 | IC50 | BH10 |  | ELISA / nucleotide incorporation | >50 µM |
| C#Cc1ccc(Nc2nccc(Oc3c(C)cc(-c4cn(-c5ccc(C(=O)OC)cc5)nn4)cc3C)n2)cc1 | IC50 |  |  | RT activity / ELISA | 0.06 µM |
| C[C@H](CC[C@H](O)C(C)(O)CO)[C@H]1CC[C@@]2(C)C3=CCC4C(C)(C)[C@@H](O)CC[C@]4(C)C3=CC[C@]12C | IC50 |  |  | RT activity | >250 µM |
| CCOC(=O)CC(=O)N1CCC(NC(=O)c2cc(O)c(O)c(O)c2)CC1 | IC50 | BH10 |  | ELISA / nucleotide incorporation | >327.5 µM |
| O=c1c2cccn2c2cc(Cl)c(Cl)cc2n1CCNC(=S)Nc1ccc(Br)cn1 | Ki |  | RT-Y188L | nucleotide incorporation | 0.15 µM |
| O=C(c1c(F)cccc1F)n1c(-c2c(F)cccc2F)nc2ccccc21 | IC50 |  |  |  | <10 µM |
| O=C1c2ccncc2C(=O)N1CCNC(=S)Nc1ccc(Br)cn1 | Ki |  | RT-V106A | nucleotide incorporation | 7.2 µM |
| CC(=O)OC1C(=O)C2=C(C(=O)CC3C(C)(C)[C@@H](O)CC[C@]23C)[C@]2(C)[C@H](O)C[C@H]([C@H](C)CC(=O)CC(C)C(=O)O)[C@@]12C | IC50 |  |  | RT activity | >250 µM |

The last 4 rows once more:

compound,read-out,strain or isolate,mutations,method,value
O=c1c2cccn2c2cc(Cl)c(Cl)cc2n1CCNC(=S)Nc1ccc(Br)cn1,Ki,,RT-Y188L,nucleotide incorporation,0.15 µM
O=C(c1c(F)cccc1F)n1c(-c2c(F)cccc2F)nc2ccccc21,IC50,,,,<10 µM
O=C1c2ccncc2C(=O)N1CCNC(=S)Nc1ccc(Br)cn1,Ki,,RT-V106A,nucleotide incorporation,7.2 µM
CC(=O)OC1C(=O)C2=C(C(=O)CC3C(C)(C)[C@@H](O)CC[C@]23C)[C@]2(C)[C@H](O)C[C@H]([C@H](C)CC(=O)CC(C)C(=O)O)[C@@]12C,IC50,,,RT activity,>250 µM

Conditions beyond the fields shown may differ between rows. Blank or dashed fields: not listed here.